Data on two compounds can be found in PMC2639639, “Identification of Three Classes of Heteroaromatic Compounds with Activity against Intracellular Trypanosoma cruzi by Chemical Library Screening” (PLoS Neglected Tropical Diseases, 2009).

The test system of one series is HepG2 cells. As to the kind of experiment: Cytotoxicity assay (Alamar Blue) on HepG2 cells. The class given is cell-based, human. To be noted: for Ratio of TC50 to IC50 (HepG2 cells at 24 h): TC50 HepG2 24 h / IC50 intracellular growth; for Ratio of TC50 to IC50 (HepG2 cells at 4 days): TC50 HepG2 4 days / IC50 intracellular growth. The procedure:
(§1) Cells (NIH/3T3 or HepG2) were washed and plated at a density of 50,000 cells/well of 96-well plates in 200 µl and allowed to adhere for 3 h. Twenty-four hour assays were done in DMEM without phenol red supplemented with 10% FBS and Pen-Strep-Glut, while 4-day assays were done in the same medium containing 2% FBS. Drugs were added and mixed. After 1 or 4 days, 20 µl of Alamar Blue (Biosource, Invitrogen) was added. Plates were incubated for 4 h (HepG2) or 6 h (NIH/3T3) at 37°C and fluorescence was read using a Labsystems Fluoroskan II plate reader (excitation: 544 nm, emission: 590 nm) .
(§2) To determine TC50 values, fluorescence was plotted against inhibitor concentration. TC50 was determined as the concentration at which cytotoxicity (fluorescence) was half that in the absence of inhibitor.

A further series concerns NIH/3T3 cells. As to the kind of experiment: Cytotoxicity assay (Alamar Blue) on NIH/3T3 cells. It is filed as cell-based. To be noted: TC50 NIH/3T3 4 days / IC50 intracellular growth. Here is the method:
as §1, §2

For the compound `Cc1cc(OCCCCCCn2ccnc2)cc(C)c1Cl` [CX1, 1-[6-(4-chloro-3,5-dimethylphenoxy)hexyl]-1H-imidazole], in the series with HepG2 cells (24 h (1 day)), the “Ratio of TC50 to IC50, HepG2” value is reported as “over 500 fold”. Also, in the series on HepG2 cells (4 days), the “Ratio of TC50 to IC50, HepG2” value is given as “over 500 fold”. Moreover, in the series on HepG2 cells, the “Ratio of TC50 to IC50 (HepG2 cells at 24 h)” value is recorded as “^*2400×” and the “Ratio of TC50 to IC50 (HepG2 cells at 4 days)” value was “^*530×”. In the series with NIH/3T3 cells, the “Ratio of TC50 to IC50 (NIH/3T3 cells at 4 days)” value is “^*690×”.
Turning to `O=C(NN=Cc1ccc(-c2cccc(Cl)c2Cl)o1)c1ccccn1` [PCH1, N′-{[5-(2,3-dichlorophenyl)-2-furyl]methylene}-2-pyridinecarbohydrazide], in the series on HepG2 cells (24 h (1 day)), the “Ratio of TC50 to IC50, HepG2” value is on record as “over 500 fold”. The “Ratio of TC50 to IC50, HepG2” value in the series with HepG2 cells (4 days) was “over 500 fold”. Moreover, in the series on HepG2 cells, the “Ratio of TC50 to IC50 (HepG2 cells at 24 h)” value is recorded as “^*>5500×” and the “Ratio of TC50 to IC50 (HepG2 cells at 4 days)” value was “^*1200×”. The “Ratio of TC50 to IC50 (NIH/3T3 cells at 4 days)” value in the series on NIH/3T3 cells was “^*>5500×”.
